Patent US20250320281A1

Key:
Assay in all cases: cell-based or functional assay
[1] = target: Env of the clade D HIV-1 pseudoviruses of the 162-pseudovirus panel (n = 25)
[2] = target: Env of all HIV-1 pseudoviruses of the cross-clade 162-pseudovirus panel (n = 162)
[3] = target: Env of the clade AG HIV-1 pseudoviruses of the 162-pseudovirus panel (n = 10)
[4] = target: Env of the clade B HIV-1 pseudoviruses of the 162-pseudovirus panel (n = 31)
[5] = target: Env of the clade F HIV-1 pseudoviruses of the 162-pseudovirus panel (n = 15)
[6] = target: 162-pseudovirus panel representing all major circulating HIV-1 subtypes
[7] = target: Env of the clade G HIV-1 pseudoviruses of the 162-pseudovirus panel (n = 15)
[8] = target: Env of the clade AE HIV-1 pseudoviruses of the 162-pseudovirus panel (n = 10)
[9] = target: Env of the clade A HIV-1 pseudoviruses of the 162-pseudovirus panel (n = 26)

Row | Binder | Median IC50 (µg/ml) against viruses neutralized with an IC50 <50 µg/ml [1] [µg/mL] | Median IC50 (µg/ml) against viruses neutralized with an IC50 <50 µg/ml [2] [µg/mL] | Median IC50 (µg/ml) against viruses neutralized with an IC50 <50 µg/ml [3] [µg/mL] | Median IC50 (µg/ml) against viruses neutralized with an IC50 <50 µg/ml [4] [µg/mL] | Median IC50 (µg/ml) against viruses neutralized with an IC50 <50 µg/ml [5] [µg/mL] | Median IC50 (µg/ml) against viruses neutralized with an IC50 <50 µg/ml [6] [µg/mL] | Median IC50 (µg/ml) against viruses neutralized with an IC50 <50 µg/ml [7] [µg/mL] | Median IC50 (µg/ml) against viruses neutralized with an IC50 <50 µg/ml [8] [µg/mL] | Median IC50 (µg/ml) against viruses neutralized with an IC50 <50 µg/ml [9] [µg/mL]
1 | 5123_A06 (PGT-125) (antibody, V domains shown) VH: QSQLQESGPRLVEASETLSLTCNVSGESTGACTYFWGWVRQAPGKGLEWIGSLSHCQSFWGSGWTFHNPSLKSRLTISLDTPKNQVFLKLTSLTAADTATYYCARFDGEVLVYNHWPKPAWVDLWGRGIPVTVSS VL: QSALTQPPSASGSPGQSITISCNGTATNFVSWYQQFPDKAPKLIIFGVDKRPPGVPDRFSGSRSGTTASLTVSRLQTDDEAVYYCGSLVGNWDVIFGGGTTLTVL | 0.09 | 0.04 | 0.01 | 0.02 | 0.04 | 0.04 | 0.02 | 0.03 | –
2 | 5141_B17 (PGT-126) (antibody, V domains shown) VH: QPQLQESGPGLVEASETLSLTCTVSGDSTAACDYFWGWVRQPPGKGLEWIGGLSHCAGYYNTGWTYHNPSLKSRLTISLDTPKNQVFLKLNSVTAADTAIYYCARFDGEVLVYHDWPKPAWVDLWGRGTLVTVSS VL: QSALTQPPSASGSPGQSISISCTGTSNRFVSWYQQHPGKAPKLVIYGVNKRPSGVPDRFSGSKSGNTASLTVSGLQTDDEAVYYCSSLVGNWDVIFGGGTKLTVL | 0.04 | 0.04 | 0.03 | 0.02 | 0.05 | 0.04 | – | – | 0.01
